Experimental data from ChEMBL document CHEMBL1122213, “Synthesis and study of a spin-labeled cyclophosphamide analogue, 3-(1-oxy-2,2,6,6-tetramethyl-4-piperidinyl)cyclophosphamide” (J Med Chem, 1982).

Experiment: Half life was determined
Format: ADME
Conditions: rat

NP(=O)(O)N(CCCl)CCCl
T1/2: 18 min
